Assay results from BindingDB's records for patent US11452717 (SANFORD BURNHAM PREBYS MEDICAL DISCOVERY INSTITUTE, 2022).

Chains of the proteins cited; added tags and fusions are not shown. Lines headed by an entry give the natural chain unless they say otherwise; changes in a name come on top.
UniProt P43490: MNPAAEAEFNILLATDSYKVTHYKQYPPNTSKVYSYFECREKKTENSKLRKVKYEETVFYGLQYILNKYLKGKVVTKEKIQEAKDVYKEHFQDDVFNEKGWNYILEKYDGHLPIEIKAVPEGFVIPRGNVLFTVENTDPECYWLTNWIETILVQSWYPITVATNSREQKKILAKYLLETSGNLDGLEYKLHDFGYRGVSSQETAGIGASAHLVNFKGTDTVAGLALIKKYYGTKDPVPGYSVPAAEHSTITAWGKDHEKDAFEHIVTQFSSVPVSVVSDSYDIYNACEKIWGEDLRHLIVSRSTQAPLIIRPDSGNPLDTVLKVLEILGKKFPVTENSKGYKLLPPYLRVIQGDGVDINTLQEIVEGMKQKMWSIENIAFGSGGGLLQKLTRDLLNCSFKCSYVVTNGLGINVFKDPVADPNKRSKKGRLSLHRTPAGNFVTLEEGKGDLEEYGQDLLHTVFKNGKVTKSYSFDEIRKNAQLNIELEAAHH

Molecular target: Nicotinamide phosphoribosyltransferase (Homo sapiens, UniProt P43490)
Experiment: Enzyme Assay and NMN Detection

EC50: > 20 µM
SMILES: CCOC(=O)c1ccc(NC(=O)NCc2ccncc2)cc1 [US11452717, Compound TableB-2.28]
